A mixed list of measured activities; the numbers were collected in NIAID ChemDB.

Common to all: tests in culture; organism: Aspergillus niger; measure: MFC

An empty or dashed field is not shown.

compound,strain,method,value
C[C@H]1[C@H](O)[C@@H](C)/C=C/C=C/C=C/C=C/C=C/C=C/C=C/[C@H](O[C@@H]2O[C@H](C)[C@@H](O)[C@H](N)[C@@H]2O)C[C@@H]2O[C@](O)(C[C@@H](O)C[C@@H](O)CC[C@H](O)[C@@H](O)C[C@@H](O)CC(=O)O[C@H]1C)C[C@H](O)[C@H]2C(=O)O,,broth dilution,2 µM
OB1OC(N2CCN(C3OB(O)c4ccccc43)CC2)c2ccccc21,,turbidity,0.9 µg/mL
O=C(Nc1nc2ccccc2[nH]1)c1cn[nH]c1C(=O)c1ccccc1,,broth dilution,10 µg/mL
Clc1cccc(Cl)c1CO/N=C1/c2ccccc2OCC1n1cncn1,ATCC 16401,,>64 µg/mL
C[C@H]1[C@H](O)[C@@H](C)/C=C/C=C/C=C/C=C/C=C/C=C/C=C/[C@H](O[C@@H]2O[C@H](C)[C@@H](O)[C@H](N)[C@@H]2O)C[C@@H]2O[C@](O)(C[C@@H](O)C[C@@H](O)CC[C@H](O)[C@@H](O)C[C@@H](O)CC(=O)O[C@H]1C)C[C@H](O)[C@H]2C(=O)O,ATCC 16404,broth dilution,4 µg/mL
C=C[C@]1(C)C[C@H](OC(=O)C(=C)C(O)COC(C)=O)[C@H]2C(=C)C(=O)O[C@@H]2[C@H]1C(=C)CO,ATCC 6275,,0.5 µg/mL
Clc1ccc(CO/N=C2\c3ccccc3OCC2n2cncn2)cc1,ATCC 16401,,16 µg/mL
C=C1C(=O)O[C@H]2[C@H]1[C@@H](O)C[C@]1(C)[C@@H]2[C@@H](CO)CC[C@H]1O,ATCC 6275,,0.5 µg/mL
Clc1ccc(CO/N=C2/c3ccccc3OCC2n2cnnc2)c(Cl)c1,ATCC 16401,,64 µg/mL
Fc1cc(F)c(B2Oc3ccccc3O2)c(F)c1,,turbidity,250 µg/mL
C=C(C(=O)O[C@H]1CC(C)=CCC/C(CO)=C/[C@H]2OC(=O)C(=C)[C@H]12)C(O)COC(C)=O,ATCC 6275,,0.25 µg/mL
COc1cc(/C=C/C(C)=O)ccc1O,MTCC 218,broth dilution,880 µM
Fc1cccc(CO/N=C2/c3ccccc3OCC2n2cncn2)c1,ATCC 16401,,32 µg/mL
C[C@H]1[C@H](O)[C@@H](C)/C=C/C=C/C=C/C=C/C=C/C=C/C=C/[C@H](O[C@@H]2O[C@H](C)[C@@H](O)[C@H](N)[C@@H]2O)C[C@@H]2O[C@](O)(C[C@@H](O)C[C@@H](O)CC[C@H](O)[C@@H](O)C[C@@H](O)CC(=O)O[C@H]1C)C[C@H](O)[C@H]2C(=O)O,ATCC 16404,visual reading,1 µg/mL
Fc1ccc(CO/N=C2/c3ccccc3OCC2n2cncn2)cc1,ATCC 16401,,64 µg/mL
OB1OC(N2CCOCC2)c2ccccc21,,turbidity,62.5 µg/mL
Clc1ccc(CO/N=C2/c3ccccc3OCC2n2cnnc2)cc1,ATCC 16401,,>64 µg/mL
CCC1/C=C/C=C/C=C/C=C/C(OC2OC(C)C(O)C(N)C2O)CC2OC(O)(CC(O)CC(O)C(O)/C=C/C(=O)OC1C)CC(O)C2C(=O)O,CGMCC 3.6478,broth dilution,11.25 µg/mL

The first 2 rows once more:

C[C@H]1[C@H](O)[C@@H](C)/C=C/C=C/C=C/C=C/C=C/C=C/C=C/[C@H](O[C@@H]2O[C@H](C)[C@@H](O)[C@H](N)[C@@H]2O)C[C@@H]2O[C@](O)(C[C@@H](O)C[C@@H](O)CC[C@H](O)[C@@H](O)C[C@@H](O)CC(=O)O[C@H]1C)C[C@H](O)[C@H]2C(=O)O ; method: broth dilution ; value: 2 µM
OB1OC(N2CCN(C3OB(O)c4ccccc43)CC2)c2ccccc21 ; method: turbidity ; value: 0.9 µg/mL

Conditions beyond the fields shown may differ between rows.